Results of unrelated studies side by side (data: NIAID ChemDB).

Shared fields: whole-cell or culture tests; organism: Candida albicans; measure: MIC

Conditions beyond the fields shown may differ between rows. An empty or dashed field is not shown.

smiles,strain or isolate,result
Cc1c(S(=O)(=O)c2ccccc2)[n+](=O)c2cc(Cl)ccc2n1[O-],Clinical isolate 10,15.6 µg/mL
O=Cc1cc(-c2ccc(F)cc2)on1,,50 µg/mL
CC(=O)OC1C(=O)N2CCCS(=O)(=O)C12c1ccccc1,SH/T54,19.41 µM
Cc1ncc([N+](=O)[O-])n1CCN1C(=O)S/C(=C/c2cccs2)C1=O,,125 µg/mL
CC[C@@H]([C@H](C)O)n1ncn(-c2ccc(N3CCN(c4ccc(OC[C@@H]5CO[C@@](Cn6cncn6)(c6ccc(F)cc6F)C5)cc4)CC3)cc2)c1=O,Isolate CA-2,>4 µg/mL
CCCCC/C=C/C=C/C(O)C/C=C/C=C/C(=O)OC1C(O)C(c2c(O)cc(O)cc2CO)OC(CO)C1OC1OC(C(O)COC(=O)/C=C/C=C\CCC(O)CC)C(O)C1O,C-A-24,0.39 µg/mL
C=C(C)C1CC2=C(O1)C(=O)c1ccccc1C2=O,,20 µg/mL
CN(CCCC#CC(C)(C)C)c1cccc2c1CCC(=O)N2,Clinical isolate 12,62.5 µg/mL
C[C@H]1[C@H](O)[C@@H](C)/C=C/C=C/C=C/C=C/C=C/C=C/C=C/[C@H](O[C@@H]2O[C@H](C)[C@@H](O)[C@H](N)[C@@H]2O)C[C@@H]2O[C@](O)(C[C@@H](O)C[C@@H](O)CC[C@H](O)[C@@H](O)C[C@@H](O)CC(=O)O[C@H]1C)C[C@H](O)[C@H]2C(=O)O,ATCC 32354,0.4 µg/mL
CCOc1ccc(CC(=O)Nc2cc([N+](=O)[O-])ccc2O)cc1,,12.5 µg/mL
C[C@@H](N1CCN(c2ccc(F)cc2)C1=O)C(O)(Cn1cncn1)c1ccc(F)cc1F,TIMM1756,<0.016 µg/mL
CSc1nc2ccccc2c(=O)n1/N=C1\C(=O)N(CN(C)C)c2ccccc21,,156 µg/mL
Cc1ncc([N+](=O)[O-])n1CCN1C(=O)S/C(=C\c2ccccc2)C1=O,,125 µg/mL
CCCCCCSc1cc(=S)ss1,ATCC 10231,250 µg/mL
CN[C@@H]1[C@H](O[C@@H]2OC[C@@H](O)[C@H](O)[C@H]2O)[C@@H](O)[C@H](O[C@H]2c3cc(C)c(C(=O)N[C@H](C)C(=O)O)c(O)c3-c3c(cc4c(c3O)C(=O)c3cc(OC)cc(O)c3C4=O)[C@@H]2O)O[C@@H]1C,83-2-14,12.5 µg/mL
CC(=O)OC1C(=O)N(c2ccccc2)C1c1ccc2c(c1)OCO2,SH/T54,154 µM
CCCCCOc1ccc(-c2ccc(-c3ccc(C(=O)N[C@H]4CCCNC(=O)C5CNCN5C(=O)C(C(C)O)NC(=O)C(CCc5ccc(O)cc5)NC(=O)C5C[C@@H](O)CN5C(=O)C(C(C)O)NC4=O)cc3)cc2)cc1,ATCC 62376,0.78 µg/mL
Cc1ccc(-c2cc(C=O)no2)cc1,,50 µg/mL
CSc1nc2ccccc2c(=O)n1/N=C1\C(=O)N(CN2CCOCC2)c2ccccc21,,78.12 µg/mL
Cc1ccc(C2N(c3ccccc3)C(=O)C2(Cl)Cl)cc1,ATCC 10231,125 µg/mL
CSc1nc2ccccc2c(=O)n1/N=C1\C(=O)Nc2ccc(Br)cc21,,156 µg/mL
CC(C)(C)CSc1cc(=S)ss1,Clinical isolate 00-604,8 µg/mL
COc1ccc(C[C@H](N)C(=O)N[C@H]2[C@@H](O)[C@H](n3cnc4c(N)ncnc43)O[C@@H]2C(=O)O)cc1,FP-622,3.1 µg/mL
C[C@@H](N1CCN(c2ccc(OCC(F)(F)C(F)F)cc2)C1=O)C(O)(Cn1cncn1)c1ccc(F)cc1F,TA,<0.016 µg/mL
O=[n+]1c(Sc2ccccc2)c(CBr)n([O-])c2ccccc21,Clinical isolate 4,15.6 µg/mL
C[C@@H](n1ccn(-c2ccc(OC(F)(F)F)cc2)c1=O)C(O)(Cn1cncn1)c1ccc(F)cc1F,TIMM1756,<0.016 µg/mL
COC(=O)c1ccc(N2C(=O)C(OC(C)=O)C2c2ccc(F)cc2)cc1,SH/T54,35.01 µM
COc1ccc(C2N(c3ccc(Cl)cc3)C(=O)C2(Cl)Cl)cc1,ATCC 10231,125 µg/mL
Cc1onc(-c2cccc(Cl)c2)c1C=O,,>50 µg/mL
O=[N+]([O-])c1ccc2oc(Cc3ccc(Cl)cc3)nc2c1,,12.5 µg/mL
O=Cc1cc(-c2ccccc2Cl)on1,,25 µg/mL
O=C1N(c2ccccc2)C(c2ccc(Cl)cc2)C1(Cl)Cl,ATCC 10231,125 µg/mL
NC(=O)N=Nc1c(O)[nH]c2cc(Cl)ccc12,,>1.56 µg/mL
CCCCCCCCSc1cc(=S)ss1,ATCC 10231,>250 µg/mL
O=C(N=Nc1c(O)[nH]c2cc(Cl)ccc12)Nc1ccc([N+](=O)[O-])cc1,,1.56 µg/mL
CCSc1ssc(=S)c1OC,ATCC 10231,62.5 µg/mL
O=Cc1cc(-c2ccc(Cl)cc2Cl)no1,,50 µg/mL
Cc1c(Sc2ccccc2)[n+](=O)c2cc(Cl)ccc2n1[O-],Clinical isolate 22,7.8 µg/mL
C=C[C@@]1(C)C=C2CC[C@@H]3[C@](C)(CCC[C@@]3(C)C(=O)O)[C@H]2CC1,,>100 µg/mL
Cc1ncc([N+](=O)[O-])n1CCN1C(=O)S/C(=C/c2ccco2)C1=O,,125 µg/mL
C=C1CCN([C@H](C)[C@](O)(Cn2cncn2)c2ccc(F)cc2F)CC1,KC-03,<0.025 µg/mL
C[C@@H](n1ccn(-c2ccc(OC(F)(F)C(F)F)cc2)c1=O)C(O)(Cn1cncn1)c1ccccc1F,TA,<0.016 µg/mL
C[C@@H](n1cnc2cc(N)c(F)cc2c1=O)[C@](O)(Cn1cncn1)c1ccc(F)cc1F,76 strains,5 µg/mL
C=C(C)C1CC2=C(O1)C(=O)c1cccc(O)c1C2=O,,10 µg/mL
CSc1nc2ccccc2c(=O)n1/N=C1\C(=O)N(CN2CCOCC2)c2ccc(Cl)cc21,,39.06 µg/mL
CCCCCCCCOc1ccc(N2CCN(c3ccc(C(=O)N[C@H]4CCCNC(=O)C5C[C@H](N)CN5C(=O)C(C(C)O)NC(=O)C(Cc5ccc(C=O)cc5)NC(=O)C5CCCN5C(=O)C(C(C)O)NC4=O)cc3)CC2)cc1,ATCC CCH442,25 µg/mL
O=S1c2ccccc2SN1C1CC1,CCH442,50 µg/mL
C[C@H]([C@](O)(Cn1cncn1)c1ccc(F)cc1F)S(C)(=O)=O,76 strains,20 µg/mL
C[C@@]12CCC[C@@](C)(C(=O)O)C1CCC13CC4[C@H](CC12)[C@]4(C)C3,,>100 µg/mL
C[C@@H](n1ccn(-c2ccc(F)cc2)c1=O)C(O)(Cn1cncn1)c1ccc(F)cc1F,TIMM1756,<0.016 µg/mL
O=C1C(O)C2(c3ccccc3)SCCCN12,SH/T54,53.19 µM
CCCCCOc1ccc(-c2ccc(-c3ccc(C(=O)N[C@H]4CCCNC(=O)C5C[C@H](F)N5C(=O)C(C(C)O)NC(=O)C(CCc5ccc(O)cc5)NC(=O)C5C[C@@H](O)CN5C(=O)C(C(C)O)NC4=O)cc3)cc2)cc1,ATCC CCH442,0.39 µg/mL
O=C(N=Nc1c(O)[nH]c2cc(Cl)ccc12)Nc1ccc(Cl)cc1,,>1.56 µg/mL
Cc1ccc(-c2noc(C)c2C=O)cc1,,50 µg/mL
C=C(C)C1CC2=C(O1)C(=O)c1cccc(OC)c1C2=O,,80 µg/mL
O=C1N(c2ccccc2)C(c2ccccc2)C1(Cl)Cl,ATCC 10231,125 µg/mL
C[C@@H](n1ccn(-c2ccc(OC(F)(F)C(F)F)cc2)c1=O)C(O)(Cn1cncn1)c1ccc(F)cc1F,TA,<0.016 µg/mL
CCc1nn(CC(=O)NN)c(=O)n1NCc1ccccc1,,250 µg/mL
Nc1[nH]c(=O)ncc1F,9760-H85,1.56 µg/mL
CCCCCCCCOc1ccc(N2CCN(c3ccc(C(=O)N[C@H]4CCCNC(=O)C5C[C@H](N)CN5C(=O)C(C(C)O)NC(=O)C(Cc5ccc(CO)cc5)NC(=O)C5CCCN5C(=O)C(C(C)O)NC4=O)cc3)CC2)cc1,ATCC 62376,1.56 µg/mL
O=C1C(OS(=O)(=O)c2ccc([N+](=O)[O-])cc2)C(c2ccccc2)N1c1ccccc1,SH/T54,14.08 µM
CCCCCOc1ccc(-c2ccc(-c3ccc(C(=O)N[C@H]4CCCNC(=O)C5C[C@H](NC(=O)c6cn[nH]c6)CN5C(=O)C(C(C)O)NC(=O)C(CCc5ccc(O)cc5)NC(=O)C5C[C@@H](O)CN5C(=O)C(C(C)O)NC4=O)cc3)cc2)cc1,ATCC 62376,0.2 µg/mL
CCOc1cc2c(cc1F)n([O-])c(C)c(Cl)[n+]2=O,Clinical isolate 1,62.5 µg/mL
CCCCCOc1ccc(-c2ccc(-c3ccc(C(=O)N[C@H]4CCCNC(=O)C5C[C@H](NC(=O)CCc6ccccc6)CN5C(=O)C(C(C)O)NC(=O)C(CCc5ccc(O)cc5)NC(=O)C5C[C@@H](O)CN5C(=O)C(C(C)O)NC4=O)cc3)cc2)cc1,ATCC 62376,6.25 µg/mL
O=[N+]([O-])c1ccc2oc(-c3ccccc3)nc2c1,,12.5 µg/mL
O=C(N=Nc1c(O)[nH]c2cc(Cl)ccc12)Nc1ccccc1Cl,,1.56 µg/mL
Cc1ccc(NC(=S)NCCn2c([N+](=O)[O-])cnc2C)cc1,,125 µg/mL
O=C(Cc1ccc(Br)cc1)Nc1cc([N+](=O)[O-])ccc1O,,12.5 µg/mL
CSc1nc2ccccc2c(=O)n1/N=C1\C(=O)N(CN(C)C)c2ccc(Cl)cc21,,156 µg/mL
O=Cc1cc(-c2ccc(F)cc2)no1,,50 µg/mL
COc1ccc(-c2ccc(C(=O)N[C@H]3CCCNC(=O)C4C[C@H](N)CN4C(=O)C(C(C)O)NC(=O)C(CCc4ccc(O)cc4)NC(=O)C4C[C@@H](O)CN4C(=O)C(C(C)O)NC3=O)cc2)cc1,ATCC 62376,6.25 µg/mL
O=C1N(c2ccc(Cl)cc2)C(c2ccccc2)C1(Cl)Cl,ATCC 10231,125 µg/mL
C[C@@H](n1ccn(-c2ccc(OCC(F)(F)C(F)F)cc2)c1=O)C(O)(Cn1cncn1)c1ccccc1F,TA,<0.016 µg/mL
CCc1ccc(C2CC(=NOCc3ccccc3)CC(c3ccc(CC)cc3)N2C)cc1,,100 µg/mL
C=CCN(CC=C)C(C)C(O)(Cn1cncn1)c1ccc(F)cc1F,KC-03,<0.025 µg/mL
CCC(C)n1ncn(-c2ccc(N3CCN(c4ccc(OC[C@H]5CO[C@](Cn6cncn6)(c6ccc(Cl)cc6Cl)O5)cc4)CC3)cc2)c1=O,Isolate CA-9,>8 µg/mL
C[C@@H](n1cnc2c(Cl)cccc2c1=O)[C@](O)(Cn1cncn1)c1ccc(F)cc1F,406 strains,0.07 µg/mL
CSc1nc2ccccc2c(=O)n1/N=C1\C(=O)Nc2ccc(Cl)cc21,,156 µg/mL
S=c1cc(Sc2ccccc2)ss1,Clinical isolate 00-604,<0.13 µg/mL
COC(=O)c1ccc(N2C(=O)C(OC(C)=O)C2c2ccccc2)cc1,SH/T54,147 µM
Cc1ncc([N+](=O)[O-])n1CCN1C(=O)/C(=C/c2ccc(Cl)cc2)N=C1c1ccccc1,,250 µg/mL
C[C@@H](n1cnc2cc(Cl)ccc2c1=O)[C@](O)(Cn1cncn1)c1ccc(F)cc1F,76 strains,≤0.03 µg/mL